Anti-infective test results gathered from many reports (values: NIAID ChemDB through PubChem).

Common to all: tests on isolated targets; protein: Cathepsin D; read-out: IC50

ICn is the concentration giving n% inhibition.

SMILES,method,value
CC(C)CN(C[C@@H](O)[C@H](Cc1ccccc1)NC(=O)O[C@H]1CCOC1)S(=O)(=O)c1ccc(N)cc1,-,15.2 µM
CC(C)C[C@H](NC(=O)[C@@H](NC(=O)N(C)Cc1ccccn1)C(C)C)C(=O)C(F)(F)[C@H](CC(C)C)NC(=O)[C@@H](NC(=O)N(C)Cc1ccccn1)C(C)C,-,98 µM
CC(C)(C)OC(=O)N[C@@H](Cc1ccccc1)[C@H](O)CNC[C@@H](O)[C@H](Cc1ccccc1)NC(=O)C(C)(O)C(C)(C)C,absorbance,>31 µM
CCCCNC(=O)[C@H](C)C[C@H](O)[C@H](CC1CCCCC1)NC(=O)[C@@H](NC(=O)[C@H](CCC(N)=O)NC(=O)OC(C)(C)C)C(C)C,-,0.17 µM
CC(C)[C@H](NC(=O)OCc1ccccc1)C(=O)N[C@@H](Cc1ccccc1)C(=O)C(F)(F)[C@H](Cc1ccccc1)NC(=O)[C@@H](NC(=O)OCc1ccccc1)C(C)C,-,>100 µM
CC(C)(C)NC(=O)[C@@H]1CCCN1C(=O)[C@@H](O)[C@H](Cc1ccccc1)NC(=O)[C@H](CC(N)=O)NC(=O)COc1cccc2ccccc12,HPLC,18 µM
CCCCNC(=O)[C@H](C)C[C@H](O)[C@H](CC1CCCCC1)NC(=O)[C@@H](NC(=O)[C@H](CCCN)NC(=O)OC(C)(C)C)C(C)C,-,21 µM
CC(C)(C)NC(=O)[C@H]1N(C(=O)[C@@H](O)[C@H](Cc2ccccc2)NC(=O)[C@H](CC(N)=O)NC(=O)COc2cccc3cnccc23)CSC1(C)C,HPLC,100 µM
CC(C)[C@H](NC(=O)CCc1ccccn1)C(=O)N[C@@H](Cc1ccccc1)C(=O)C(F)(F)[C@H](Cc1ccccc1)NC(=O)[C@H](NC(=O)CCc1ccccn1)C(C)C,-,>100 µM
CSC[C@H](NC(=O)COc1cccc2cnccc12)C(=O)N[C@@H](Cc1ccccc1)[C@H](O)C(=O)N1CSC(C)(C)[C@H]1C(=O)NC(C)(C)C,HPLC,23 µM
CCCCNC(=O)[C@H](C)C[C@H](O)[C@H](CC1CCCCC1)NC(=O)[C@@H](NC(=O)[C@H](Cc1cccc2ccccc12)NC(=O)OC(C)(C)C)C(C)C,-,1.5 µM
CC(C)(C)NC(=O)[C@@H]1CSCN1C(=O)[C@@H](O)[C@H](Cc1ccccc1)NC(=O)[C@H](CC(N)=O)NC(=O)COc1cccc2ccccc12,HPLC,100 µM
CC(C)[C@H](NC(=O)OCc1ccccn1)C(=O)N[C@@H](Cc1ccccc1)C(=O)C(F)(F)[C@H](Cc1ccccc1)NC(=O)[C@@H](NC(=O)OCc1ccccn1)C(C)C,-,94 µM
CC(C)(C)NC(=O)[C@H]1N(C(=O)[C@@H](O)[C@H](Cc2ccccc2)NC(=O)[C@H](CC(N)=O)NC(=O)COc2cccc(Nc3ccccc3)c2)CSC1(C)C,HPLC,1.6 µM
CCNC(=O)[C@@H](NC(=O)Cc1ccccc1)[C@@H]1N[C@@H](C(=O)NCCNC(=O)[C@@H]2N[C@@H]([C@H](NC(=O)Cc3ccccc3)C(=O)NCC)SC2(C)C)C(C)(C)S1,-,>100 µM

The last 2 rows once more:

SMILES,method,value
CC(C)(C)NC(=O)[C@H]1N(C(=O)[C@@H](O)[C@H](Cc2ccccc2)NC(=O)[C@H](CC(N)=O)NC(=O)COc2cccc(Nc3ccccc3)c2)CSC1(C)C,HPLC,1.6 µM
CCNC(=O)[C@@H](NC(=O)Cc1ccccc1)[C@@H]1N[C@@H](C(=O)NCCNC(=O)[C@@H]2N[C@@H]([C@H](NC(=O)Cc3ccccc3)C(=O)NCC)SC2(C)C)C(C)(C)S1,-,>100 µM

Rows are shuffled and stem from different studies. An empty or dashed field is not shown.